# Sequence variants of PSTVd loop 15 after infection

The measurements come from Wu et al. 2024 (doi:10.1371/journal.ppat.1012142).

The pool varies loop 15 of the PSTVd intermediate strain in the pattern GGAAACCGNNNNNNC; wild type is GGAAACCGCUACUAC (upper and lower strand joined, each 5' to 3', the first 7 letters being the upper strand, closing pairs included).

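Three N. benthamiana plants were inoculated with the whole mutant pool. Samples came from the inoculated region at 5 days, the leaf margin at 10 and upper systemic leaves at 12.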

Numbers give reads per thousand; 0 = not seen among the reads, higher = more abundant.
Each site shows the three plants.
"Pool" is the share in the plasmid pool used as inoculum, on the same scale.
The inoculated region was read from the minus strand, the other sites from the plus strand.
IR is the inoculated region, LM the leaf margin, Sys the systemic leaves.

GGAAACCGUCUCAUC (pool 0.256) gave IR 0.147 / 0.145 / 0.0190; LM 0 / 0 / 0; Sys 0 / 0 / 0. With GGAAACCGCGAUUAC (pool 0.240) the assay gave IR 0.262 / 0.353 / 0.286; LM 0.0162 / 0.0445 / 0.0801; Sys 0.0322 / 0.0908 / 0.0912. GGAAACCGGCUUAAC (pool 0.336) gave IR 0.0491 / 0.112 / 0.0381; LM 0 / 0.0445 / 0.0601; Sys 0.0161 / 0 / 0. GGAAACCGACAAUAC (pool 0.224) read IR 0.311 / 0.225 / 0.419; LM 0.113 / 0.0668 / 0.0801; Sys 0.0644 / 0.0303 / 0.137. With GGAAACCGCGUUCUC (pool 0.208) the assay gave IR 0.0983 / 0.129 / 0.0762; LM 0.0162 / 0 / 0.0200; Sys 0 / 0 / 0.

With GGAAACCGUAACGUC (pool 0.224) the assay gave IR 0.0655 / 0.0643 / 0.133; LM 0 / 0 / 0.0200; Sys 0 / 0 / 0. GGAAACCGCAUUGCC (pool 0.224) gave IR 0.131 / 0.0803 / 0.114; LM 0.0162 / 0 / 0; Sys 0 / 0 / 0. GGAAACCGGACUGCC (pool 0.208) read IR 0.115 / 0.0321 / 0.114; LM 0 / 0.0223 / 0; Sys 0 / 0 / 0. With GGAAACCGUGAACGC (pool 0.304) the assay gave IR 0.0983 / 0.0643 / 0.0952; LM 0 / 0 / 0.0401; Sys 0 / 0 / 0. With GGAAACCGCGAACUC (pool 0.208) the assay gave IR 0.344 / 0.321 / 0.400; LM 0.178 / 0.111 / 0.200; Sys 0.0161 / 0 / 0.

GGAAACCGGGCGAGC (pool 0.208) read IR 0.0983 / 0.0803 / 0.0762; LM 0 / 0 / 0.0200; Sys 0 / 0 / 0. GGAAACCGUGAAGAC (pool 0.208) gave IR 0.0655 / 0.145 / 0.0762; LM 0 / 0 / 0; Sys 0.0161 / 0 / 0. GGAAACCGAUUUCUC (pool 0.352) gave IR 0.0983 / 0.129 / 0.190; LM 0.0162 / 0 / 0.0401; Sys 0 / 0 / 0. For GGAAACCGAAAAUCC (pool 0.240) the result was IR 0.0819 / 0.0482 / 0.171; LM 0.0323 / 0 / 0; Sys 0 / 0 / 0. For GGAAACCGAUGAUCC (pool 0.208) the result was IR 0.0983 / 0.0964 / 0.171; LM 0.0162 / 0 / 0.0401; Sys 0 / 0 / 0.

GGAAACCGAUGCCGC (pool 0.224) gave IR 0.0819 / 0.0643 / 0; LM 0 / 0.0223 / 0; Sys 0 / 0 / 0. With GGAAACCGUUUCGUC (pool 0.288) the assay gave IR 0.147 / 0.145 / 0.114; LM 0 / 0 / 0; Sys 0.0161 / 0 / 0. GGAAACCGAAUCGUC (pool 0.256) gave IR 0.180 / 0.289 / 0.0762; LM 0.0162 / 0.0223 / 0.0200; Sys 0 / 0 / 0. For GGAAACCGCGGACCC (pool 0.208) the result was IR 0.0491 / 0.0964 / 0.0762; LM 0 / 0 / 0; Sys 0 / 0 / 0. For GGAAACCGUAAACCC (pool 0.272) the result was IR 0.115 / 0.0482 / 0.0952; LM 0 / 0 / 0; Sys 0 / 0 / 0.0228.

GGAAACCGCGACGCC (pool 0.288) read IR 0.0819 / 0.0643 / 0.0952; LM 0 / 0 / 0; Sys 0 / 0 / 0. With GGAAACCGUUCCCCC (pool 0.192) the assay gave IR 0.0328 / 0.0964 / 0.171; LM 0 / 0 / 0; Sys 0.0322 / 0 / 0. With GGAAACCGAAGAGCC (pool 0.144) the assay gave IR 0.115 / 0.145 / 0; LM 0.0162 / 0 / 0; Sys 0 / 0 / 0. For GGAAACCGUUUAGCC (pool 0.192) the result was IR 0.0983 / 0.161 / 0.0762; LM 0 / 0 / 0.0401; Sys 0 / 0 / 0. GGAAACCGGGAUUGC (pool 0.256) gave IR 0.0819 / 0.0803 / 0.114; LM 0 / 0 / 0; Sys 0 / 0 / 0.

GGAAACCGGAGGCUC (pool 0.304) gave IR 0.115 / 0.112 / 0.0952; LM 0 / 0 / 0.0200; Sys 0 / 0 / 0. GGAAACCGUGAUAAC (pool 0.336) read IR 0.197 / 0.321 / 0.495; LM 0.113 / 0.0891 / 0.160; Sys 0.0161 / 0.0303 / 0.0228. For GGAAACCGGGAAGUC (pool 0.176) the result was IR 0.147 / 0.145 / 0.114; LM 0.0323 / 0.0223 / 0.0200; Sys 0 / 0 / 0. GGAAACCGCAUCAUC (pool 0.192) gave IR 0.0328 / 0.0643 / 0.0381; LM 0.0162 / 0 / 0.0401; Sys 0 / 0 / 0. GGAAACCGGGCACAC (pool 0.240) gave IR 0.131 / 0.0643 / 0.0381; LM 0 / 0.0223 / 0; Sys 0 / 0 / 0.

Extract of 2 entries:

{"sequence": "GGAAACCGAAUCGUC", "pool": "0.256", "IR": "0.180 / 0.289 / 0.0762", "LM": "0.0162 / 0.0223 / 0.0200", "Sys": "0 / 0 / 0"}
{"sequence": "GGAAACCGAAAAUCC", "pool": "0.240", "IR": "0.0819 / 0.0482 / 0.171", "LM": "0.0323 / 0 / 0", "Sys": "0 / 0 / 0"}

Samples held 43,870 to 66,106 reads, so the smallest values rest on one or two reads.
The authors trace changes outside the varied positions to PCR and sequencing errors or to mutation in the plant; presence does not show that a variant is infectious alone.
For reference, wild type rose from 33.9 per thousand in the pool to 202, 200, 159 (inoculated region), 724, 746, 710 (leaf margin) and 856, 883, 880 (systemic leaves).